Results: ChEMBL document CHEMBL3407459, “Synthesis and antimicrobial activity of novel structural hybrids of benzofuroxan and benzothiazole derivatives” (2015)

Columns and labels:
[1] = Activation of quorum sensing system luxR in Escherichia coli MG1655 harboring pVFR1-lux at <10^-3 to 10^-4 M measured for 2 hrs by luminometric analysis; settings: Escherichia coli str. K-12 substr. MG1655
Escherichia coli [2] = assay: Antibacterial activity against Escherichia coli MG1655 harboring pColD-lux assessed as DNA damage at <10^-3 to 10^-4 M measured for 2 hrs by luminometric analysis in absence of S9 fraction; settings: K-12 substr. MG1655
Escherichia coli [3] = assay: Antibacterial activity against Escherichia coli MG1655 harboring pXen7 at <10^-3 to 10^-4 M measured for 2 hrs by luminometric analysis; settings: K-12 substr. MG1655
Escherichia coli [4] = assay: Antibacterial activity against Escherichia coli MG1655 harboring pSoxS-lux assessed as increase of intracellular superoxide anion radical and nitrogen oxide level at <10^-3 to 10^-4 M measured for 2 hrs by luminometric analysis; settings: K-12 substr. MG1655
Escherichia coli [5] = assay: Antibacterial activity against Escherichia coli MG1655 harboring pIbpA-lux assessed as protein damage at <10^-3 to 10^-4 M measured for 2 hrs by luminometric analysis; settings: K-12 substr. MG1655
Escherichia coli [6] = assay: Antibacterial activity against Escherichia coli MG1655 harboring pColD-lux assessed as DNA damage at <10^-3 to 10^-4 M measured for 2 hrs by luminometric analysis in presence of S9 fraction; settings: K-12 substr. MG1655
Escherichia coli [7] = assay: Antibacterial activity against Escherichia coli MG1655 harboring pRecA-lux assessed as DNA damage at <10^-3 to 10^-4 M measured for 2 hrs by luminometric analysis in absence of S9 fraction; settings: K-12 substr. MG1655
Vibrio sp. [8] = assay: Antibacterial activity against Vibrio aqamarinus VKPM B-11245 at 10^-3 to 10^-7 M measured for 2 hrs by luminometric analysis
Escherichia coli [9] = assay: Antibacterial activity against Escherichia coli MG1655 harboring pRecA-lux assessed as DNA damage at <10^-3 to 10^-4 M measured for 2 hrs by luminometric analysis in presence of S9 fraction; settings: K-12 substr. MG1655
Escherichia coli [10] = assay: Antibacterial activity against Escherichia coli MG1655 harboring pGrpE-lux assessed as protein damage at <10^-3 to 10^-4 M measured for 2 hrs by luminometric analysis; settings: K-12 substr. MG1655
Escherichia coli [11] = assay: Antibacterial activity against Escherichia coli MG1655 harboring pKatG-lux assessed as production of hydroperoxides at <10^-3 to 10^-4 M measured for 2 hrs by luminometric analysis; settings: K-12 substr. MG1655
Vibrio sp. [12] = assay: Antibacterial activity against Vibrio aqamarinus VKPM B-11245 at <10^-3 to 10^-4 M measured for 2 hrs by luminometric analysis

| SMILES | Activity [1] | Activity (Escherichia coli [2]) | Activity (Escherichia coli [3]) | Activity (Escherichia coli [4]) | Activity (Escherichia coli [5]) | Activity (Escherichia coli [6]) | Activity (Escherichia coli [7]) | Activity (Vibrio sp. [8]) | Activity (Escherichia coli [9]) | Activity (Escherichia coli [10]) | Activity (Escherichia coli [11]) | Activity (Vibrio sp. [12]) |
| --- | --- | --- | --- | --- | --- | --- | --- | --- | --- | --- | --- | --- |
| COc1cccc2sc(Nc3c([N+](=O)[O-])cc([N+](=O)[O-])c4no[n+]([O-])c34)nc12 | inactive | inactive | inactive | inactive | inactive | inactive | inactive | Active | inactive | inactive |  |  |
| O=[N+]([O-])c1cc([N+](=O)[O-])c2no[n+]([O-])c2c1/N=c1\sc2cc(Cl)ccc2n1-c1c([N+](=O)[O-])cc([N+](=O)[O-])c2no[n+]([O-])c12 | inactive | inactive | inactive | inactive | inactive | inactive | inactive |  | inactive | inactive | inactive | inactive |
| O=[N+]([O-])c1ccc2sc(Nc3c([N+](=O)[O-])cc([N+](=O)[O-])c4no[n+]([O-])c34)nc2c1 | inactive | inactive | inactive | inactive | inactive | inactive | inactive |  | inactive | inactive | inactive | inactive |
| CCOc1ccc2nc(Nc3c([N+](=O)[O-])cc([N+](=O)[O-])c4no[n+]([O-])c34)sc2c1 | inactive | inactive | inactive | inactive | inactive | inactive | inactive |  | inactive | inactive | inactive | inactive |
| Cc1ccc2nc(Nc3c([N+](=O)[O-])cc([N+](=O)[O-])c4no[n+]([O-])c34)sc2c1 | inactive | inactive | inactive | inactive | inactive | inactive | inactive |  | inactive | inactive | inactive | inactive |
| O=[N+]([O-])c1cc([N+](=O)[O-])c2no[n+]([O-])c2c1Nc1nc2ccccc2s1 | inactive | inactive | inactive | inactive | inactive | inactive | inactive |  | inactive | inactive | inactive | inactive |

Calls of active or inactive are those of the source. No cut-off for these calls is given here.
